Data taken from patent publication US12227512B2, “Benzimidazoles and methods of using same” (priority 2019, dated 2025).

What was measured:
SARS-CoV-2 = SARS-CoV-2 nucleocapsid protein (Western blot) and viral RNA in infected Vero cells; conditions: 24 hours post-infection
RNA virus = experiment: Inhibition of RNA virus replication (FIG. 1)

CN(C)CCCn1c(N)nc2ccc3c(c21)CC(CN(C)C)O3 (stereo not shown)
SARS-CoV-2 viral RNA (SARS-CoV-2): decreased | relative potency versus BCX4430 (RNA virus; Zika): 80 fold | activity difference between E1 and E2 isomers (RNA virus; depending on the virus and the assay conditions, E2 has the lower EC50): 10-100 fold | potency relative to BCX4430 (RNA virus; diverse sampling of therapeutically relevant viruses): 10-100 fold
